Anti-infective test results gathered from many reports (values: NIAID ChemDB through PubChem).

All rows: host cell toxicity; cells: HEL; measure: CC50

CCn: concentration that lowers growth or viability of the cells by n%. Blank or dashed fields: not listed here. Conditions beyond the fields shown may differ between rows.

SMILES	method	result
CCCCCCCCCCc1cc2cn([C@H]3C[C@H](O)[C@@H](CO)O3)c(=O)nc2o1		>200 µM
CCCCCc1ccc(-c2cc3cn(C4CC[C@@H](CO)O4)c(=O)nc3o2)cc1		>200 µM
CCCCCCCCc1ccc(-c2cc3cn([C@H]4C[C@H](O)[C@@H](CO)O4)c(=O)nc3o2)cc1		200 µM
O=C(O)c1ccc(CS(=O)(=O)c2cccc[n+]2[O-])cc1		>100 µg/mL
CCCCc1cc2cnc(OC(CC)CC)nc2o1		98 µM
COc1ccc(CS(=O)c2cccc[n+]2[O-])cc1OC		1.3 µg/mL
COC(=O)[C@H](C)NP(=O)(OC[C@H]1O[C@@H](n2cc(/C=C/Br)c(=O)[nH]c2=O)C[C@@H]1O)Oc1ccccc1		>200 µM
O=c1nc2oc(CCCCCCCCCI)cc2cn1[C@H]1C[C@H](O)[C@@H](CO)O1		>200 µM
CCCCCCCCCc1cc2cn([C@H]3C[C@H](O)[C@@H](CO)O3)c(=O)nc2o1		>200 µM
C=CCCCCc1cc2cn([C@H]3C[C@H](O)[C@@H](CO)O3)c(=O)nc2o1		>200 µM
Cc1ccccc1C(Sc1cccc[n+]1[O-])C(N)=O		>50 µg/mL
Nc1nc(N)c2ncn(C[C@H](CO)OCP(=O)(O)O)c2n1		>150 µM
COc1cccc(-c2cc(C)c3ncc(CSCCc4ccccc4)n3c2)c1		36 µg/mL
Cc1ccc(C)c(C(C)S(=O)(=O)c2c(Cl)ccc[n+]2[O-])c1		1.7 µg/mL
Nc1ncnc2c1ncn2[C@@H]1C[C@@H](O)[C@@H](O)[C@H]1O		115 µg/mL
CCCCCCCC#Cc1cn(S(=O)(=O)c2ccc(C)cc2)c(=O)[nH]c1=O		98 µM
Cc1ccn2c(C3OCCO3)cnc2c1		>290 µM
COc1ccc(OC)c(CS(=O)(=O)c2cccc[n+]2[O-])c1		60 µg/mL
C=CC1=C[C@@H](n2cnc3c(N)ncnc32)[C@H](O)[C@@H]1O		100 µg/mL
CCCCCCCCCCc1cc2cn([C@H]3C[C@H](O)[C@@H](CO)O3)c(=O)nc2o1		>50 µM
Cc1ccc(S(=O)(=O)n2cc(I)c(=O)[nH]c2=O)cc1		131 µM
O=C(COc1cccc2ccccc12)NN=Cc1cccc(O)c1		62.7 µg/mL
Cc1cn(CC[C@H](O)CCO)c(=O)[nH]c1=O		>400 µg/mL
Cc1ccn2c(C3SCCS3)cnc2c1		>245 µM
CCCCCCCCc1cc2cn([C@H]3CC[C@@H](CO)O3)c(=O)nc2o1		112 µM
CO[C@H](CO)[C@@H](O)CCn1cnc2c(N)ncnc21		>400 µg/mL
CC(C)C[C@H](NC(=O)n1nnc2ccccc21)C(=O)NC1CCCC1		87.3 µg/mL
CCCCCCCCCCc1cc2cn(CCCC)c(=O)nc2o1		>200 µM
CCCCc1ccc(-c2cc3cn(C4CC[C@@H](CO)O4)c(=O)nc3o2)cc1		>200 µM
CO[C@H](CO)[C@@H](O)CCn1cc(C)c(=O)[nH]c1=O		>400 µg/mL
O=C(COc1cccc2ccccc12)NN=Cc1ccc(F)cc1		71.6 µg/mL
CCCCCCCc1ccc(-c2cc3cn(C4CC[C@@H](CO)O4)c(=O)nc3o2)cc1		>200 µM
CCCCc1cc2cn(C3CCCC3)c(=O)nc2o1		>200 µM
CCCCOCCCCCCCCCc1cc2cn([C@H]3C[C@H](O)[C@@H](CO)O3)c(=O)nc2o1		>200 µM
CCCCCCc1ccc(C#CC#Cc2cn([C@H]3C[C@H](O)[C@@H](CO)O3)c(=O)[nH]c2=O)cc1		35 µM
Cc1cccn2c(CSCc3ccccc3)cnc12		8 µg/mL
Nc1ccn(CC[C@H](O)CCO)c(=O)n1		>400 µg/mL
CCCCCCCCc1cc2cn([C@H]3C[C@H](O)[C@@H](CO)O3)c(=O)nc2o1		>200 µM
Cc1ccn2c(CSCc3ccccc3)c(-c3ccccc3)nc2c1		>50 µg/mL
O=C(C1CC1)N(O)c1ccc(Cl)cc1		37 µg/mL
CCCCCCCCCCc1cc2cnc(OCCCC)nc2o1		>200 µM
Cc1cc(Br)c2ncc(CSCc3ccccc3)n2c1		>50 µg/mL
CCCCc1cc2cnc(OC3CCCC3)nc2o1		108 µM
CCCCCCCc1cc2cn(COCCO)c(=O)nc2o1		140 µM
Cc1ccc(C)c(CS(=O)c2c(C)ccc[n+]2[O-])c1		42 µg/mL
CC(O)CC#CC#Cc1cn([C@H]2C[C@H](O)[C@@H](CO)O2)c(=O)[nH]c1=O		9.5 µM
CCCCC#Cc1cc2cn(COCCO)c(=O)nc2o1		>50 µM
Cc1ccn2c(CSCC(F)(F)F)cnc2c1		>50 µg/mL
CCCCCCCc1cc2cn([C@H]3C[C@H](O)[C@@H](CO)O3)c(=O)nc2o1		>50 µM
CC1=C[C@@H](n2cnc3c(N)ncnc32)[C@H](O)[C@@H]1O		50 µg/mL
O=c1nc2[nH]ccc2cn1COCCO		>200 µM
O=c1[nH]c(=O)n([C@H]2C[C@H](O)[C@@H](CO)O2)cc1-c1cc(-c2ccccc2)no1		>200 µg/mL
Cc1cc(-c2cccc([N+](=O)[O-])c2)c2ncc(CSCCc3ccccc3)n2c1		47 µg/mL
O=C(COc1cccc2ccccc12)NN=Cc1ccccc1		64.5 µg/mL
CCCCCCc1cc2cn(C3CCCC3)c(=O)nc2o1		>200 µM
CCCCCCCCCc1cc2cn([C@H]3C[C@H](O)[C@@H](CO)O3)c(=O)nc2o1		>50 µM
CCCCCCCCCCc1cc2cnc(OC3CCCC3)nc2o1		>200 µM
Nc1ncn(CCOCP(=O)(O)O)c(=O)n1		>50 µg/mL
O=c1[nH]c(=O)n([C@H]2C[C@H](O)[C@@H](CO)O2)cc1C#CCCCCCCCCCI		68 µM
c1ccc(COc2cccnc2SCc2ccccc2)cc1		5.9 µg/mL
Nc1cnn(C[C@H](CO)OCP(=O)(O)O)c(=O)n1		>50 µg/mL
c1ccc(CSc2ccccn2)cc1		51 µg/mL
Cc1cc(Br)cn2c(CSCc3ccccc3)cnc12		>50 µg/mL
O=C(C1CCCCC1)N(O)c1ccc(Cl)cc1		28 µg/mL
COc1ccc([N+](=O)[O-])cc1CS(=O)(=O)c1cccc[n+]1[O-]		17 µg/mL
CCCCCCCCCCc1cc2cnc(OCc3ccc(C)cc3)nc2o1		>200 µM
COCC1=C[C@@H](n2cnc3c(N)ncnc32)[C@H](O)[C@@H]1O		200 µg/mL
O=c1[nH]c(=O)n([C@H]2C[C@H](O)[C@@H](CO)O2)cc1C#CC#CCC1CCCC1		89 µM
CC(c1ccccc1)S(=O)c1cccc[n+]1[O-]		1.4 µg/mL
O=C(COc1cccc2ccccc12)NN=Cc1ccccc1O		3.57 µg/mL
COc1cccc(-c2cc(C)cn3c(CSCCc4ccccc4)cnc23)c1		>50 µg/mL
CC(C)C1NC(=O)N(C2CCCCC2)C1=O	MTT	>50 µg/mL
CCCCCCCCCCc1cc2cn(CCC)c(=O)nc2o1		>200 µM
O=c1[nH]c(=O)n([C@H]2C[C@H](O)[C@@H](CO)O2)cc1C#CC#Cc1ccc([N+](=O)[O-])cc1		89 µM
O=S(=O)(Cc1ccc(Cl)cc1)c1cccc[n+]1[O-]		25 µg/mL
CCCCCCCCc1cc2cn([C@H]3C[C@H](O)[C@@H](CO)O3)c(=O)nc2o1		>50 µM
CCOc1ccccc1CS(=O)c1cccc[n+]1[O-]		69 µg/mL
CCCCCc1cc2cn(COCCO)c(=O)nc2[nH]1		>200 µM
CCCCCCC#Cc1c[nH]c(=O)[nH]c1=O		132 µM
N#CC1C(c2ccccc2)Nc2sccc2S1(=O)=O		>50 µg/mL
COc1cc(/C=C/C(=O)CC(=O)/C=C/c2ccc(OCCOC(=O)CCC(NC(=O)c3ccc(NCc4cnc5nc(N)[nH]c(=O)c5n4)cc3)C(=O)O)c(OC)c2)ccc1O	MTS / tetrazolium / absorbance	>0.0119 µM
CCCCCCCCC#Cc1c[nH]c(=O)[nH]c1=O		63 µM
CCCCCc1cc2cn([C@H]3C[C@H](O)[C@@H](CO)O3)c(=O)nc2o1		>50 µM
O=S(Cc1ccc(F)cc1)c1cccc[n+]1[O-]		87 µg/mL
Nc1nc2c(ncn2COC(CO)CO)c(=O)[nH]1		>196 µM
C[C@H](Cn1cnc2c(=O)[nH]c(N)nc21)OCP(=O)(O)O		>150 µM
COc1cccnc1SCc1ccccc1		>20 µg/mL
Cc1c(Br)cc(Br)c2ncc(CSCc3ccccc3)n12		>50 µg/mL
Cc1ccc(C)c(CS(=O)(=O)c2ncccc2O)c1		>20 µg/mL
Nc1nc2c(ncn2COCCO)c(=O)[nH]1		87 µg/mL
OCCSCc1c(-c2ccccc2)nc2ccccn12		80 µg/mL
O=C(NC(c1ccccc1)c1ccccc1)[C@H](Cc1ccccc1)NC(=O)n1nnc2ccccc21	MTT	17.3 µg/mL
Cc1oc(NC(=O)C(F)(F)F)c(S(=O)(=O)c2ccc(Cl)cc2)c1C		46 µg/mL
Cc1ccn2c(CSCCO)cnc2c1		70 µg/mL
Cc1ccn2c(CSCCc3ccccc3)cnc2c1		>50 µg/mL
CC(C)(C)c1nc2ccccn2c1NC(=S)Nc1ccccc1		>50 µg/mL
Cc1ccc(C)c(CS(=O)c2cccc[n+]2[O-])c1		>50 µg/mL
CCCCCCCCc1cc2cn(C3CCCC3)c(=O)nc2o1		>200 µM
O=c1nc2oc(CCCCCCCCCF)cc2cn1[C@H]1C[C@H](O)[C@@H](CO)O1		200 µM
O=S(=O)(Cc1c(Cl)ccc(Cl)c1Cl)c1cccc[n+]1[O-]		6.5 µg/mL
CCCCCCCCCCc1cc2cn(C3CCCCC3)c(=O)nc2o1		>200 µM
CCCCCCCCCCc1cc2cnc(OCCCCC)nc2o1		>200 µM
Nc1nc2c(ncn2C[C@H](CF)OCP(=O)(O)O)c(=O)[nH]1		236 µM
CCCCCCc1cc2cn(CCC(C)C)c(=O)nc2o1		>200 µM
Cc1nc2ccccn2c1CSCc1ccccc1		33 µg/mL
O=c1nc2oc(CCCCCCCCCOCC3CCCC3)cc2cn1[C@H]1C[C@H](O)[C@@H](CO)O1		>200 µM
Nc1nc2c(ncn2C[C@@H](CF)OCP(=O)(O)O)c(=O)[nH]1		>150 µM
O=C(COc1cccc2ccccc12)NN=Cc1ccc([N+](=O)[O-])cc1		14.2 µg/mL
Nc1ncc2ncn(C[C@@H](CF)OCP(=O)(O)O)c2n1		>600 µM
Cc1cc(-c2cccc(O)c2)c2ncc(CSCCc3ccccc3)n2c1		11.4 µg/mL
O=c1[nH]c(=O)n([C@H]2C[C@H](O)[C@@H](CO)O2)cc1/C=C/Br		>200 µM
Cc1ccc[n+]([O-])c1S(=O)(=O)Cc1c(Cl)cccc1Cl		70 µg/mL
Cc1cccn2c(C3OCCS3)cnc12		>266 µM
Cc1nc2ccccn2c1NC(=O)Nc1ccccc1		>50 µg/mL
Cc1c(S(=O)(=O)c2ccc(Cl)cc2)c(NC(=O)C(F)(F)F)n(Cc2ccccc2)c1C		28 µg/mL

For reference, 12 entries again:

| SMILES | method | result |
|---|---|---|
| Cc1ccn2c(C3OCCO3)cnc2c1 |  | >290 µM |
| Nc1nc(N)c2ncn(C[C@H](CO)OCP(=O)(O)O)c2n1 |  | >150 µM |
| Cc1c(S(=O)(=O)c2ccc(Cl)cc2)c(NC(=O)C(F)(F)F)n(Cc2ccccc2)c1C |  | 28 µg/mL |
| COc1cccnc1SCc1ccccc1 |  | >20 µg/mL |
| Cc1nc2ccccn2c1CSCc1ccccc1 |  | 33 µg/mL |
| CC(O)CC#CC#Cc1cn([C@H]2C[C@H](O)[C@@H](CO)O2)c(=O)[nH]c1=O |  | 9.5 µM |
| Cc1ccccc1C(Sc1cccc[n+]1[O-])C(N)=O |  | >50 µg/mL |
| O=c1[nH]c(=O)n([C@H]2C[C@H](O)[C@@H](CO)O2)cc1C#CC#CCC1CCCC1 |  | 89 µM |
| CO[C@H](CO)[C@@H](O)CCn1cc(C)c(=O)[nH]c1=O |  | >400 µg/mL |
| C=CC1=C[C@@H](n2cnc3c(N)ncnc32)[C@H](O)[C@@H]1O |  | 100 µg/mL |
| Cc1cccn2c(CSCc3ccccc3)cnc12 |  | 8 µg/mL |
| COc1cccc(-c2cc(C)cn3c(CSCCc4ccccc4)cnc23)c1 |  | >50 µg/mL |